According to ChEMBL document CHEMBL1125007 (J Med Chem, 1990):

Experiments:
P388 [1] = assay: Optimal dose (i.p.) given after inoculation with wild type 10 E 6 P388/W leukemia cell lines, measured on day 1
P388 [2] = assay: Increase in life span of the drug treated animals against P388 leukemia when treated at a optimal dose of 65 mg/kg

| SMILES | OD (P388 [1]) [mg/kg] | ILS (P388 [2]) [%] |
| --- | --- | --- |
| CS(=O)(=O)c1ccc(N(CCCl)CCCl)cc1 | 100 | – |
| CSc1ccc(N(CCCl)CCCl)cc1 | 65 | – |
| COc1ccc(N(CCCl)CCCl)cc1 | 65 | 36 |
| Cc1ccc(N(CCCl)CCCl)cc1 | 65 | 22 |
